Measured values: PMC11742723, “The clinical-stage drug BTZ-043 accumulates in murine tuberculosis lesions and efficiently acts against Mycobacterium tuberculosis” (Nature Communications, 2025)

Experiment: Impact of γ-irradiation on BTZ-043 in spiked liver mimetic tissue cryosections
Design: species or system mouse
Conditions: spiked tissue mimetic KW1001 9.7 µg/g, individual cryosections, LC-MS/MS (Figure S3a)

In the case of C[C@H]1COC2(CCN(c3nc(=O)c4cc(C(F)(F)F)cc([N+](=O)[O-])c4s3)CC2)O1 [BTZ-043], the “ng BTZ-043 / mg tissue mimetic section” value (irradiated) is reported as 5.86 ng/mg and 7.42 ng/mg and 4.56 ng/mg and 7.66 ng/mg and 7.15 ng/mg and 6.78 ng/mg and 6.12 ng/mg and the “ng BTZ-043 / mg tissue mimetic section” value (non-irradiated) is reported as 5.82 ng/mg and 6.00 ng/mg and 6.37 ng/mg and 6.57 ng/mg and 6.6 ng/mg and 5.45 ng/mg.

Values joined by “and” are separate entries in the source; they are usually repeats but may differ in a detail not shown here. Equal values may be shown once.
